Earlier results, collected in paper PMC12322948 (The Journal of Organic Chemistry, 2025).

Sequences of proteins named here, by UniProt entry; tags and fusion partners are left off. Residues count along the entry.
UniProt Q9BYF1, 18-805 limits assumed: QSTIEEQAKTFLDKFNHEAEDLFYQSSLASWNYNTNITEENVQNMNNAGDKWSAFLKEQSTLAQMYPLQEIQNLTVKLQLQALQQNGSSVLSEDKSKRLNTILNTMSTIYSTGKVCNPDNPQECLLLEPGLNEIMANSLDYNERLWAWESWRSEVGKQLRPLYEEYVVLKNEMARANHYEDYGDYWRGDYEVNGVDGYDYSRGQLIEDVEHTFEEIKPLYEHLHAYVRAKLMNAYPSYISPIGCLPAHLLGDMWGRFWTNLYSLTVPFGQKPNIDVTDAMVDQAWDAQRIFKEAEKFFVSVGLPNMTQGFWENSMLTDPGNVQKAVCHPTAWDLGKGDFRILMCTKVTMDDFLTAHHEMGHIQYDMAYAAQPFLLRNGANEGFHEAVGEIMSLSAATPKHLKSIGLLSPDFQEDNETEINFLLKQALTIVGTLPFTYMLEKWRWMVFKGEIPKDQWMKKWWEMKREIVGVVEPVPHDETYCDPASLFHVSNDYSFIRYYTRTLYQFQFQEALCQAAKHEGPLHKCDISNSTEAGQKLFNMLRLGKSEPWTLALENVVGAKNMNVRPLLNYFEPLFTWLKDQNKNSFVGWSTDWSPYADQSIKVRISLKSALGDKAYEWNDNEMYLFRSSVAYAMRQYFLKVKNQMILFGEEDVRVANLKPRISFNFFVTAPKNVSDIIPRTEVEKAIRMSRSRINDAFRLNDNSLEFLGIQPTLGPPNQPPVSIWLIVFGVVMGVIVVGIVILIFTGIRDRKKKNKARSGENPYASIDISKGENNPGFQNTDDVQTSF

Target: ACE2 (Homo sapiens, UniProt Q9BYF1)
Conditions: published ACE2 value; ref Dales et al.; cited from earlier work

## Cc1cccc(Cn2cncc2C[C@H](N[C@@H](CC(C)C)C(=O)O)C(=O)O)c1
  Reported pIC50: 8.38

## CC(C)C[C@H](N[C@@H](Cc1cncn1Cc1ccc(OC(F)(F)F)cc1)C(=O)O)C(=O)O
  Reported pIC50: 7.28

## CC(C)C[C@H](N[C@@H](Cc1cncn1Cc1ccc(Cl)cc1)C(=O)O)C(=O)O
  Reported pIC50: 7.68

## Cc1ccccc1Cn1cncc1C[C@H](N[C@@H](CC(C)C)C(=O)O)C(=O)O
  Reported pIC50: 7.54

## CC(C)C[C@H](N[C@@H](Cc1cncn1Cc1ccc([N+](=O)[O-])cc1)C(=O)O)C(=O)O
  Reported pIC50: 7.12

## Cc1ccc(Cn2cncc2C[C@H](N[C@@H](CC(C)C)C(=O)O)C(=O)O)cc1
  Reported pIC50: 7.49

## Cc1ccc(Cn2cncc2C[C@H](N[C@@H](CC(C)C)C(=O)O)C(=O)O)cc1C
  Reported pIC50: 8.00

## CC[C@H](N[C@@H](Cc1cncn1Cc1ccccc1)C(=O)O)C(=O)O
  Reported pIC50: 6.52

## Cc1cc(C)cc(Cn2cncc2C[C@H](N[C@@H](CC(C)C)C(=O)O)C(=O)O)c1
  Reported pIC50: 8.85
